A mixed list of measured activities; the numbers were collected in NIAID ChemDB.

Common to all: tests on isolated targets; agent: HIV-1; protein: Reverse transcriptase; read by: nucleotide incorporation / radiometric; read-out: IC50

ICn is the concentration giving n% inhibition. Blank or dashed fields: not listed here. Neighbouring rows are from separate reports. a–b is a range or a potency band.

CCN1c2ncc(CCOc3cccc4c3CN(C)C(=O)N4C)cc2C(=O)Nc2c(C)ccnc21 ; strain: IIIB ; result: <0.05 µM
Cc1cn([C@H]2CC[C@@H](COP(=O)(O)OP(=O)(O)OP(=O)(O)O)O2)c(=O)[nH]c1=O ; strain: WT ; result: 0.12 µM
Cc1cc(C#N)ccc1Oc1ccc(CC(=O)Nc2ccc(S(N)(=O)=O)cc2)cc1Cl ; result: 100 µM
C=CCO/N=C/c1cc(NC(=S)c2ccoc2C)ccc1Cl ; mutations: RT-Y188H ; result: 7 µM
CCN1c2ncc(CCOc3ccc(CC(C)C(=O)O)c4ccccc34)cc2C(=O)N(C)c2ccc(Cl)nc21 ; mutations: RT-V106A ; result: >1 µM
N#Cc1cc(C#N)cc(Oc2ccc(CC(=O)Nc3ccc(S(=O)(=O)N4CCCCC4)cc3)cc2Cl)c1 ; result: 100 µM
CCN1c2ncc(CCOc3cccc4c3ccc[n+]4[O-])cc2C(=O)N(C)c2ccc(Cl)nc21 ; mutations: RT-K103N L100I ; result: 0.044 µM
CCN1c2ncc(CCOc3cccc4c3CN(C)C(=O)N4C)cc2C(=O)N(C)c2cccnc21 ; mutations: RT-K103N Y181C ; strain: IIIB ; result: >0.1 µM
Nc1nc2c(ncn2[C@H]2CC[C@@H](COP(=O)(O)OP(=O)(O)NP(=O)(O)OP(=O)(O)OC[C@H]3O[C@@H](n4cnc5c(N)ncnc54)[C@H](O)[C@@H]3O)O2)c(=O)[nH]1 ; strain: WT ; result: >50 µM
CCN1c2ncc(CCOc3ccc(C(=O)O)c4ccccc34)cc2-c2ncc(C)n2-c2cccnc21 ; result: <0.05 µM
CCN1c2ncc(CCOc3ccc(C(=O)O)c4ccccc34)cc2C(=O)Nc2c(C)cc(F)nc21 ; mutations: RT-K103N Y181C ; result: 0.1–1 µM
CCN1c2ncc(CCOc3cccc4c3CNC(=O)N4C)cc2C(=O)N(C)c2cccnc21 ; mutations: RT-K103N Y181C ; strain: IIIB ; result: <0.05 µM
NS(=O)(=O)c1ccc(NC(=O)Cc2ccc(Oc3c(Cl)cccc3Cl)c(Cl)c2)cc1 ; result: 100 µM
CCN1c2ncc(CCOc3ccc(C(=O)O)c4c3CCN(S(C)(=O)=O)C4)cc2C(=O)N(C)c2cccnc21 ; mutations: RT-Y188L ; result: 0.1–1 µM
Cc1occc1C(=S)Nc1ccc(Cl)c(C(=O)OCC2CC2)c1 ; mutations: RT-K103N ; result: >50 µM
CCN1c2ncc(CCOc3ccc(-c4ccc(CC(=O)O)cc4)cc3C)cc2-c2nccn2-c2cccnc21 ; mutations: RT-K103N Y181C ; result: <0.05 µM
CCc1ccccc1NC(=O)Cc1ccc(Oc2cc(C#N)cc(C#N)c2)c(Cl)c1 ; result: 100 µM
N#Cc1cc(Cl)cc(Oc2cc(F)c(Cl)c(OCc3[nH]nc4ncccc34)c2)c1 ; result: <20 µM
CCN1c2ncc(CCOc3cccc4c3CNC(=O)N4)cc2-c2nccn2-c2cccnc21 ; mutations: RT-K103N Y181C ; result: <0.05 µM
CCN1c2ncc(CCOc3ccc(CC(=O)O)c4ccccc34)cc2C(=O)N(C)c2ccc(Cl)nc21 ; mutations: RT-K103N Y181C ; result: 0.1–1 µM
CCN1c2ncc(CCOc3cccc4[nH]c(=O)n(C)c34)cc2C(=O)N(C)c2cccnc21 ; mutations: RT-K103N Y181C ; strain: IIIB ; result: >0.1 µM
NS(=O)(=O)c1ccc(NC(=O)COc2cccc(Cc3ccccc3)c2)c(Cl)c1 ; result: <20 µM
CCN1c2ncc(CCOc3cccc4c3CNC(=O)N4C)cc2C(=O)Nc2c(C)ccnc21 ; mutations: RT-K103N Y181C ; strain: IIIB ; result: >0.1 µM
Cc1occc1C(=S)Nc1ccc(Cl)c(/C=N/OC(C)(C)C)c1 ; mutations: RT-V106A ; result: 39 µM
CNc1ccc2c(COc3ccc(Cl)c(Oc4cc(Cl)cc(C#N)c4)c3)[nH]nc2n1 ; result: <20 µM
CCN1c2ncc(CCOc3cccc4c3CCNC4=O)cc2-c2ncc(C)n2-c2cccnc21 ; mutations: RT-K103N Y181C ; result: >0.1 µM
N#Cc1cc(Cl)cc(Oc2cc(OCc3[nH]nc4nc(N5CCOCC5)ccc34)ccc2Cl)c1 ; result: <20 µM
CCN1c2ncc(CCOc3cccc4c3C=CS(=O)(=O)N4C)cc2-c2ncc(C)n2-c2cccnc21 ; result: <0.05 µM
Nc1nc2c(ncn2[C@H]2CC[C@@H](COP(=O)(O)OP(=O)(O)OP(=O)(O)O)O2)c(=O)[nH]1 ; strain: WT ; result: 0.12 µM
N#Cc1cc(Cl)cc(Oc2cc(Cl)cc(OCc3[nH]nc4ccccc34)c2)c1 ; result: <20 µM
CCN1c2ncc(CCOc3ccc4c(c3)CN(C)C(=O)N4C)cc2C(=O)N(C)c2cccnc21 ; strain: IIIB ; result: <0.05 µM
Nc1ccn([C@H]2CC[C@@H](COP(=O)(O)OP(=O)(O)OP(=O)(O)OP(=O)(O)OC[C@@H]3CC[C@H](n4ccc(N)nc4=O)O3)O2)c(=O)n1 ; strain: WT ; result: 2.1 µM
C=Cc1cc(N(CC)CC)nc(S(=O)(=O)Cc2ccc(OC)cc2)n1 ; result: 407 µM
CCN1c2ncc(CCOc3ccc4c(c3)CNC(=O)N4C)cc2C(=O)N(C)c2cccnc21 ; strain: IIIB ; result: <0.05 µM
CCN1c2ncc(CCOc3cccc4c3CNS4(=O)=O)cc2-c2ncc(C)n2-c2cccnc21 ; mutations: RT-K103N Y181C ; result: <0.05 µM
CSc1nc(N)c(C)c(C(=O)c2ccc(F)cc2)n1 ; result: 2.1 µM
N#Cc1ccc(Cl)c(Oc2ccc(CC(=O)Nc3ccc(S(N)(=O)=O)cc3)cc2Cl)c1 ; result: 100 µM
CN(C)c1ccc2c(COc3ccc(Cl)c(Oc4cc(Cl)cc(C#N)c4)c3)[nH]nc2n1 ; result: <20 µM

Repeating the final 4 entries:

compound	mutations	strain	result
CCN1c2ncc(CCOc3cccc4c3CNS4(=O)=O)cc2-c2ncc(C)n2-c2cccnc21	RT-K103N Y181C		<0.05 µM
CSc1nc(N)c(C)c(C(=O)c2ccc(F)cc2)n1			2.1 µM
N#Cc1ccc(Cl)c(Oc2ccc(CC(=O)Nc3ccc(S(N)(=O)=O)cc3)cc2Cl)c1			100 µM
CN(C)c1ccc2c(COc3ccc(Cl)c(Oc4cc(Cl)cc(C#N)c4)c3)[nH]nc2n1			<20 µM